# Results published in PMC6042199, “Inhibitory effects against α-glucosidase and α-amylase of the flavonoids-rich extract from Scutellaria baicalensis shoots and interpretation of structure–activity relationship of its eight flavonoids by a refined assign-score method” (Chemistry Central Journal, 2018).
# Tested on: yeast α-glucosidase from Saccharomyces cerevisiae
# Experiment: α-glucosidase inhibitory effect (pNPG, AUC of absorbance at 405 nm)
# Format: biochemical
# Conditions: Contribution = [Ei/E0] × C × 100
# Experimental: All solvents (analytical grade) were bought from Beijing Chemical Factory, and purified water was from a mili-Q system (Millipore, Billerica, MA).
# α-Glucosidase inhibitory effect was assayed as reported by Zhang et al.. […] Then, 30 μL pNPG solution (2 mM pNPG in 0.1 mM phosphate buffer) was added quickly to initiate the enzyme reaction. Absorbance was monitored at 405 nm every 15 min for 2 h using a microplate reader (Tecan infinite 200, Swiss).
row,SMILES,"Contribution to the overall enzyme inhibitory effect of the extract, α-glucosidase [%]"
1,"O=C(O)[C@H]1O[C@@H](Oc2cc(O)c3c(=O)cc(-c4ccc(O)cc4)oc3c2)[C@H](O)[C@@H](O)[C@@H]1O [Apigenin-7-O-G, apigenin-7-O-glucuronide]",2.77 ± 0.05
2,O=c1cc(-c2ccc(O)cc2)oc2cc(O)cc(O)c12 [Apigenin],8.32 ± 0.56
3,"O=C(O)[C@H]1O[C@@H](Oc2cc3oc(-c4ccccc4)cc(=O)c3c(O)c2O)[C@H](O)[C@@H](O)[C@@H]1O [Baicalin, baicalin]",4.65 ± 0.12
4,"O=c1cc(-c2ccccc2)oc2cc(O)cc(O)c12 [Chrysin, chrysin]",6.20 ± 0.08
5,"O=C(O)[C@H]1O[C@@H](Oc2cc(O)c3c(=O)cc(-c4ccccc4)oc3c2)[C@H](O)[C@@H](O)[C@@H]1O [Chrysin-7-O-G, chrysin-7-O-glucuronide]",1.01 ± 0.03
